# Test results published in article PMC10096180, “Half-Sandwich Type Platinum-Group Metal Complexes of C-Glucosaminyl Azines: Synthesis and Antineoplastic and Antimicrobial Activities” (Molecules, 2023).
# Key:
# Format in all cases: cell-based
# Conditions in all cases: Hill slope
# [1] = system: A2780 cells; test: SRB binding assay, cytostasis, 48 h treatment
# Protocol: (§1) The complexes described above are intended to replace registered platinum complexes. Platinum complexes constitute the core of the chemotherapy regimen used in ovarian cancer; therefore, we used a cellular model of ovarian cancer, A2780, and primary human dermal fibroblasts as models of non-transformed cells (controls). For the characterization of the complexes, we used an MTT assay after 4 h of treatment for the detection of early toxicity and an SRB assay 48 h after treatment for the detection of cytostasis.
# (§2) An SRB assay measures protein content of cells in correlation with the cell number in an assay well and can therefore be used to assess cell proliferation or long-term cytostasis. Cells were seeded in 96-well plates the day before the assay. Cells were treated with the compounds for 48 h. Then medium was removed, and cells were fixed with 10% trichloroacetic acid. Fixed cells were washed in distilled water 3 times, followed by staining with SRB (0.4 m/V% dissolved in 1% acetic acid) for 10 min. Stained cells were washed in 1% acetic acid 5 times; acetic acid was removed, and cells were left to dry. Protein-bound SRB was released by adding 100 μL 10 mM Tris base. Plates were measured in a plate photometer (Thermo Scientific Multiscan GO spectrophotometer, Waltham, MA, USA) at 540 nm. On each plate, wells were designed to contain vehicle-treated cells. In calculations, the readings for these wells were considered to be 1, and all readings were expressed relative to these values.
# (§3) Statistical analysis was performed using version 8.0.1 of GraphPad Prism. Values were tested for normal distribution using the Shapiro–Wilk normality test. Nonlinear regression was performed using the built-in “[Inhibitor] vs. response—Variable slope (four parameters), least square fit” utility of GraphPad, which yielded IC50 and Hill slope values if the sigmoid curves reached a plateau of inhibition and there was no decrease between two subsequent data points or when inhibition was over 90%. In other cases, the percentage of inhibition was taken for the maximum concentration (100 μM).
# [2] = system: A2780 cells; test: MTT reduction assay, early toxicity, 4 h treatment
# Protocol: as §1
# An MTT reduction assay was measures the activity of mitochondrial complex I and can be used to detect toxicity. The assay was performed in a manner similar to that described in [84]. Briefly, cells were plated in 96-well plates the day before the assay. Cells were treated with the compounds for 4 h; then, MTT was added to a 0.5 mg/mL final concentration, and cells were incubated at 37 °C in a cell incubator for 40–60 min as a function of the cell line being assessed. Culture medium was removed, the reduced MTT dye was dissolved in dimethyl-sulfoxide, and plates were measured in a plate photometer (Thermo Scientific Multiscan GO spectrophotometer, Waltham, MA, USA) at 540 nm. On each plate, wells were designed to contain vehicle-treated cells. In calculations, the readings for these wells were considered to 1, and all readings were expressed relative to these values.
# as §3
# [3] = system: primary human dermal fibroblasts; test: SRB binding assay, cytostasis, 48 h treatment
# Protocol: as §1, §2, §3
# [4] = system: ID8 cells; test: SRB assay, 48 h
# Protocol: (§4) Figure 8 Assessment of free ligand 3a and complex Ru-3a for cytostatic activity in multiple carcinomas. […] Cells were treated with the compounds in the concentrations indicated for 48 h; then, an SRB assay was performed. Data are represented as average ± SD from three biological replicates; individual assays were performed in duplicates. Values were normalized for vehicle-treated cells; absorbance for vehicle-treated cells equals 1. Statistical significance was assessed using a one-way ANOVA test comparing all values to the lowest concentration of a compound. Before the test, normality was assessed using the Shapiro–Wilk test, and the post hoc test was chosen accordingly. […] An SRB assay measures protein content of cells in correlation with the cell number in an assay well and can therefore be used to assess cell proliferation or long-term cytostasis. Cells were seeded in 96-well plates the day before the assay. Cells were treated with the compounds for 48 h. Then medium was removed, and cells were fixed with 10% trichloroacetic acid. […] Stained cells were washed in 1% acetic acid 5 times; acetic acid was removed, and cells were left to dry. Protein-bound SRB was released by adding 100 μL 10 mM Tris base. Plates were measured in a plate photometer (Thermo Scientific Multiscan GO spectrophotometer, Waltham, MA, USA) at 540 nm. On each plate, wells were designed to contain vehicle-treated cells. […] Statistical analysis was performed using version 8.0.1 of GraphPad Prism. Values were tested for normal distribution using the Shapiro–Wilk normality test. […] In other cases, the percentage of inhibition was taken for the maximum concentration (100 μM).
# [5] = system: U251 cells; test: SRB assay, 48 h
# Protocol: as §4
SMILES,A2780 SRB Hill [1],A2780 MTT Hill [2],Fibroblast SRB Hill [3],ID8 SRB Hill [4],U251 SRB Hill [5]
Cc1ccc(C(C)C)cc1.F[P-](F)(F)(F)(F)F.N[C@@H]1[C@@H](OCc2ccccc2)[C@H](OCc2ccccc2)[C@@H](COCc2ccccc2)O[C@H]1c1cnccn1.[Cl][Ru+] [Ru-3d],2.31,2.33,–,–,–
Cc1c(C)c(C)[c-](C)c1C.F[P-](F)(F)(F)(F)F.N[C@@H]1[C@@H](OC(=O)c2ccccc2)[C@H](OC(=O)c2ccccc2)[C@@H](COC(=O)c2ccccc2)O[C@H]1c1ccccn1.[Cl][Ir+2] [Ir-7a],1.96,–,–,–,–
Cc1c(C)c(C)[c-](C)c1C.F[P-](F)(F)(F)(F)F.N[C@@H]1[C@@H](OCc2ccccc2)[C@H](OCc2ccccc2)[C@@H](COCc2ccccc2)O[C@H]1c1ccccn1.[Cl][Ir+2] [Ir-3a],1.41,–,2.12,–,–
"N[C@@H]1[C@@H](OCc2ccccc2)[C@H](OCc2ccccc2)[C@@H](COCc2ccccc2)O[C@H]1c1ccccn1 [Complex 3a, 2-(2′-Amino-2′-deoxy-3′,4′,6′-tri-O-benzyl-β-D-glucopyranosyl)pyridine]",1.33,–,–,2.10,1.77
Cc1ccc(C(C)C)cc1.F[P-](F)(F)(F)(F)F.N[C@@H]1[C@@H](OC(=O)c2ccccc2)[C@H](OC(=O)c2ccccc2)[C@@H](COC(=O)c2ccccc2)O[C@H]1c1ccccn1.[Cl][Ru+] [Ru-7a],2.46,2.54,–,–,–
Cc1ccc(C(C)C)cc1.F[P-](F)(F)(F)(F)F.NC1C(c2cccnn2)OC(COC(=O)c2ccccc2)C(OC(=O)c2ccccc2)C1OC(=O)c1ccccc1.[Cl][Os+] (mixture of isomers) [Os-7b],1.26,–,–,–,–
Cc1ccc(C(C)C)cc1.F[P-](F)(F)(F)(F)F.N[C@@H]1[C@@H](OC(=O)c2ccccc2)[C@H](OC(=O)c2ccccc2)[C@@H](COC(=O)c2ccccc2)O[C@H]1c1ccccn1.[Cl][Os+] [Os-7a],2.26,–,–,–,–
Cc1c(C)c(C)[c-](C)c1C.F[P-](F)(F)(F)(F)F.NC1C(c2cccnn2)OC(COC(=O)c2ccccc2)C(OC(=O)c2ccccc2)C1OC(=O)c1ccccc1.[Cl][Rh+2] (mixture of isomers) [Rh-7b],1.97,–,–,–,–
Cc1c(C)c(C)[c-](C)c1C.F[P-](F)(F)(F)(F)F.N[C@@H]1[C@@H](OC(=O)c2ccccc2)[C@H](OC(=O)c2ccccc2)[C@@H](COC(=O)c2ccccc2)O[C@H]1c1ccccn1.[Cl][Rh+2] [Rh-7a],1.88,–,–,–,–
Cc1ccc(C(C)C)cc1.F[P-](F)(F)(F)(F)F.N[C@@H]1[C@@H](OCc2ccccc2)[C@H](OCc2ccccc2)[C@@H](COCc2ccccc2)O[C@H]1c1cnccn1.[Cl][Os+] [Os-3d],2.52,1.98,–,–,–
Cc1ccc(C(C)C)cc1.F[P-](F)(F)(F)(F)F.NC1C(c2cccnn2)OC(COC(=O)c2ccccc2)C(OC(=O)c2ccccc2)C1OC(=O)c1ccccc1.[Cl][Ru+] (mixture of isomers) [Ru-7b],2.57,–,–,–,–
Cc1c(C)c(C)[c-](C)c1C.F[P-](F)(F)(F)(F)F.N[C@@H]1[C@@H](OCc2ccccc2)[C@H](OCc2ccccc2)[C@@H](COCc2ccccc2)O[C@H]1c1ccccn1.[Cl][Rh+2] [Rh-3a],1.11,–,–,–,–
Cc1ccc(C(C)C)cc1.F[P-](F)(F)(F)(F)F.N[C@@H]1[C@@H](OCc2ccccc2)[C@H](OCc2ccccc2)[C@@H](COCc2ccccc2)O[C@H]1c1ccccn1.[Cl][Ru+] [Ru-3a],2.98,1.68,2.87,3.87,2.55
